System: inactivated Group A β-hemolytic streptococcus
Test: Immunochromatographic detection, visual evaluation of red line on detection part
Set-up: key: “+” (positive) when the red line on the detection part (4) could be visually observed; “++” (strong positive) when the red line could be visually observed clearly; “±” (weak positive) when a light red line could be visually observed; “−” (negative) when the red line could not be visually observed
Conditions: for Result of Visual Evaluation (After Storage at 50° C. for 24 Hours): device stored at 50° C. for 24 hours, then positive analyte sample 5×10^5 org/mL, after 5 minutes; for Result of Visual Evaluation (After 5 Minutes): positive analyte sample 5×10^5 org/mL, 150 μL

Row | Compound | Result of Visual Evaluation (After Storage at 50° C. for 24 Hours) | Result of Visual Evaluation (After 5 Minutes)
1 | O=C(ON1C(=O)CCC1=O)c1ccccc1 [Comparative Example 1, N-(benzoyloxy)succinimide] | − | −
2 | O=C1OC(=O)[C@@H]2CC=CC[C@H]12 [Comparative Example 9, cis-4-cyclohexene-1,2-dicarboxylic anhydride] | − | +
3 | O=C1OC(=O)C2C3C=CC(C12)C1C(=O)OC(=O)C31 (centres unmarked) [Example 1, bicyclo[2,2,2]oct-7-ene-2,3,5,6-tetracarboxylic dianhydride] | ++ | ++
4 | CC#Cc1ccc2c(c1)C(=O)OC2=O [Example 5, 4-(1-propynyl)phthalic anhydride] | + | +
5 | CC(=O)Nc1cccc2c1C(=O)OC2=O [Example 6, 3-acetamidophthalic anhydride] | + | +
6 | O=C1OC(=O)C2CC3C(=O)OC(=O)C3CC12 (centres unmarked) [Example 7, 1,2,4,5-cyclohexanetetracarboxylic dianhydride] | ++ | ++
7 | O=C1CC(C2CC3C(=O)OC(=O)C3c3ccccc32)C(=O)O1 (centres unmarked) [Example 8, 4-(2,5-dioxotetrahydrofuran-3-yl)-1,2,3,4-tetrahydronaphthalene-1,2-dicarboxylic anhydride] | ++ | ++
8 | O=C(O)CN(CCO)CCO [compound 5, N,N-bis(2-hydroxyethyl)glycine] | − | −
9 | octadecenylsuccinic anhydride [Example 4] | ± | ±
10 | tetrapropenylsuccinic anhydride [Example 3] | ± | ±
